Source: publication PMC6943623, “Antileishmanial Compounds Isolated from Psidium Guajava L. Using a Metabolomic Approach” (Molecules, 2019)

System: L. infantum axenic amastigotes
Test: Antileishmanial activity on axenic amastigotes (luciferase assay)
Assay type: cell-based, L. infantum strain MHOM/MA/67/ITMAP-263
Settings: Selectivity Index, J774A1 CC50 versus axenic amastigote IC50

C[C@@H]1[C@H](O)[C@@H](C)/C=C/C=C/C=C/C=C/C=C/C=C/C=C/[C@H](O[C@@H]2O[C@H](C)[C@@H](O)[C@H](N)[C@@H]2O)C[C@@H]2O[C@](O)(C[C@@H](O)C[C@@H](O)[C@H](O)CC[C@@H](O)C[C@@H](O)CC(=O)O[C@H]1C)C[C@H](O)[C@H]2C(=O)O [Amphotericin B, reference compound]
SI Amastigotes: 64.33

C[C@H]1[C@H](C)CC[C@]2(C(=O)O)CC[C@]3(C)C(=CC[C@@H]4[C@@]5(C)C[C@@H](O)[C@H](O)C(C)(C)[C@@H]5CC[C@]43C)[C@H]12 [Corosolic acid (1), Corosolic acid (2α-hydroxyursolic acid)]
SI Amastigotes: 5.71
SI Amastigotes (listed as corosolic acid): above five

CC1CCC2(C(=O)O)CCC3(C)C(=CCC4C5(C)CC(O)C(OC(=O)/C=C/c6ccc(O)cc6)C(C)(C)C5CCC43C)C2C1C (centres unmarked) [Jacoumaric acid (2), Jacoumaric acid]
SI Amastigotes: 9.76
SI Amastigotes (listed as jacoumaric acid): above five
